A mixed list of measured activities; the numbers were collected in NIAID ChemDB.

All rows: tests in culture

Lines come from different laboratories, so protocols vary. Inhibition is in % at the dose shown (toxicity tests: loss of growth or viability). ECn: concentration that inhibits the pathogen or its effect by n%. MIC50, MIC90 and the like: level of inhibition, or share of isolates inhibited. Blank or dashed fields: not listed here. Fold resistance has wild type as its base.

| SMILES | organism | strain or isolate | changes | cell line | read by | measure | tested at | value |
|---|---|---|---|---|---|---|---|---|
| C[C@H]1COc2c(N3CCN(C)CC3)c(F)cc3c(=O)c(C(=O)O)cn1c23 | Streptococcus pneumoniae | Clinical isolate 6406 | - | - | - | MIC | - | 4 µg/mL |
| NC12CC3CC(CC(C3)C1)C2 | Influenza B virus | MIE/1/93 | - | MDCK | plaque count | EC50 | - | >50 µg/mL |
| CCCN1CCN(c2cc(=O)c3nc4c(oc3c2)c2c(=O)c3c(O)c(C)c5c(c34)=C(O)[C@@](C)(O/C=C/[C@H](OC)[C@@H](C)[C@@H](OC(C)=O)[C@H](C)[C@H](O)[C@H](C)[C@@H](O)[C@@H](C)/C=C/C=C(/C)C(=O)N2)O5)CC1 | Staphylococcus aureus | 20 strains (methicillin-resistant) | - | - | - | MIC90 | - | 0.0039 µg/mL |
| Nc1ncnc2c1ncn2C[C@@H](CO)OCP(=O)(O)O | Mouse cytomegalovirus | HPMPC-resistant | - | C1271 | plaque count | EC50 | - | 11 µM |
| Nc1ccc(S(=O)(=O)c2ccc(N)cc2)cc1 | Mycobacterium ulcerans | ATCC 35840 | - | - | - | MBC | - | 2 µg/mL |
| CC1=CC(=O)c2c(O)cccc2C1=O | Encephalitozoon intestinalis | - | - | RK-13 | - | inhibition | 0.01 µg/mL | 6.4% |
| C#CC[C@@H](C(=O)N[C@H](/C=C/C(=O)OCC)C[C@@H]1CCNC1=O)n1cccc(NC(=O)c2cc(C)on2)c1=O | Rhinovirus | Serotype 19 | - | H1-HELA | cytopathic effect / XTT | inhibition | 0.187 µM | 90% |
| CCCOc1ccc2nc(NC(=O)OC)[nH]c2c1 | Cryptococcus neoformans | IU8698 | - | - | - | EC50 | - | 1 µg/mL |
| Nc1nc2c(ncn2COCOCP(=O)(O)O)c(=O)[nH]1 | Parainfluenza virus | 14702 (TYPE 3) | - | - | virus yield | EC90 | - | 11 µg/mL |
| CC[C@H]1OC(=O)[C@H](C)[C@@H](O[C@H]2C[C@@](C)(OC)[C@@H](O)[C@H](C)O2)[C@H](C)[C@@H](O[C@@H]2O[C@H](C)C[C@H](N(C)C)[C@H]2O)[C@](C)(OC)C[C@@H](C)C(=O)[C@H](C)[C@@H](O)[C@]1(C)O | Mycobacterium massiliense | X71 | - | - | broth dilution | MIC | - | 0.25 µg/mL |
| Nc1nc(N)c2ncn(CCOCP(=O)(O)O)c2n1 | Mouse cytomegalovirus | Foscarnet-resistant | - | C1271 | plaque count | EC50 | - | 0.9 µM |
| c1ccc2[nH]c(-c3cscn3)nc2c1 | Cryptococcus neoformans | IU8698 | - | - | - | EC50 | - | <4 µg/mL |
| COc1cc(Cc2cnc(N)nc2N)cc(OC)c1Br | Mycobacterium ulcerans | Isolate 8756 | - | - | - | MIC | - | 4 µg/mL |
| CN(C)c1cc(NC(=O)CNC(C)(C)C)c(O)c2c1C[C@H]1C[C@H]3[C@H](N(C)C)C(=O)C(C(N)=O)=C(O)[C@@]3(O)C(=O)C1=C2O | Mycobacterium abscessus | X6 | - | - | broth dilution | MIC | - | 1 µg/mL |
| CCOC(=O)Nc1cc2[nH]c(-c3ccccc3)nc2c(N)n1 | Encephalitozoon intestinalis | - | - | RK-13 | - | inhibition | 0.1 µg/mL | 0% |
| C[C@]12C[C@H](O)[C@H]3[C@@H](CCC4=CC(=O)CC[C@@]43C)[C@@H]1CC[C@@H]2C(=O)CO | Herpes simplex virus 1 | KOS | - | HeLa | cytopathic effect | EC50 | - | >10 µg/mL |
| COC(=O)Nc1nc2ccc(C(=O)c3ccccc3)cc2[nH]1 | Encephalitozoon intestinalis | - | - | RK-13 | - | inhibition | 1 µg/mL | 74.5% |
| CN1[C@@H]2CC[C@H]1CC(OC(=O)C(CO)c1ccccc1)C2 | Herpes simplex virus 1 | KOS | - | HeLa | cytopathic effect | EC50 | - | 0.5 µM |
| Nc1ccnc2c1ncn2[C@H]1C=C[C@@H](OCP(=O)(O)O)O1 | Adenovirus | TAK (TYPE 41) | - | - | virus yield | EC90 | - | 1 µg/mL |
| Nc1nccc2c1ncn2[C@@H]1C[C@H](CO)[C@@H](O)[C@H]1O | Influenza C virus | - | - | MDCK | cytopathic effect | EC50 | - | >16 µg/mL |
| CCCCCCCCCCCCCCCCCCCCCCOCC(C)(COCCCCCCCCCCCCCCCCCCCCCC)CO[C@]1(C(=O)O)C[C@H](OS(=O)(=O)O)[C@@H](NC(C)=O)[C@H]([C@H](OS(=O)(=O)O)[C@@H](COS(=O)(=O)O)OS(=O)(=O)O)O1 | Respiratory syncytial virus | SM61-48 | - | HEP-2 | plaque count | EC50 | - | 0.13 µM |
| CCOC(=O)Nc1cc(NC(C)/C(=N/O)c2ccccc2)c([N+](=O)[O-])c(N)n1 | Encephalitozoon intestinalis | - | - | RK-13 | - | inhibition | 1 µg/mL | 11.46% |
| CCCC1CCC(=C2C(=O)CCC2=O)O1 | Herpes simplex virus 1 | KOS | - | HeLa | cytopathic effect | EC50 | - | >200 µg/mL |
| COC(=O)Nc1nc2ccc(C(=O)c3cccs3)cc2[nH]1 | Cryptococcus neoformans | IU4 | - | - | - | EC50 | - | 0.13 µg/mL |
| Nc1nc2c(ncn2COC(COCP(=O)(O)O)COCP(=O)(O)O)c(=O)[nH]1 | Mouse cytomegalovirus | Ganciclovir-resistant | - | C1271 | plaque count | EC50 | - | 5.2 µM |
| CCO/N=C/c1ccc(OCCC2CCN(c3ccc(C)nn3)CC2)cc1 | Rhinovirus | FO 1-3774 (ICAM-1 receptor group 54) | - | KB | neutral red | EC50 | - | 0.19 µM |
| CC1=C\[C@H](O)CC(=O)Cc2nc(co2)C(=O)N2CCC=C2C(=O)O[C@@H](C(C)C)[C@@H](C)/C=C/C(=O)NC\C=C\1 | Herpes simplex virus 1 | KOS | - | HeLa | cytopathic effect | EC50 | - | >200 µg/mL |
| Nc1nc2c(ncn2CC(CO)OCP(=O)(O)O)c(=O)[nH]1 | Mouse cytomegalovirus | WILD TYPE | - | C1271 | plaque count | EC50 | - | 0.8 µM |
| CC[C@H]1OC(=O)[C@H](C)[C@@H](O[C@H]2C[C@@](C)(OC)[C@@H](O)[C@H](C)O2)[C@H](C)[C@@H](O[C@@H]2O[C@H](C)C[C@H](N(C)C)[C@H]2O)[C@](C)(OC)C[C@@H](C)C(=O)[C@H](C)[C@@H](O)[C@]1(C)O | Staphylococcus aureus | 20 strains (methicillin-resistant) | - | - | - | MIC50 | - | >32 µg/mL |
| CC(=O)N1CCN(c2ccc(OC[C@H]3CO[C@](Cn4ccnc4)(c4ccc(Cl)cc4Cl)O3)cc2)CC1 | Candida albicans | Isogenic mutant isolate 1 | - | - | - | MIC | - | 0.004 µg/mL |
| NC(=O)c1ncn([C@@H]2O[C@H](CO)[C@@H](O)[C@H]2O)n1 | Measles virus | CC | - | CV-1 | cytopathic effect | EC50 | - | 20 µg/mL |
| CN[C@@H]1C[C@H](N)[C@@H](O)[C@H](O[C@@H]2O[C@H](CO)[C@H](O)[C@@H]3OC4(O[C@H]23)O[C@H]([C@@H](N)CO)[C@H](O)[C@H](O)[C@H]4O)[C@H]1O | Herpes simplex virus 1 | KOS | - | HeLa | cytopathic effect | EC50 | - | >100 µM |
| CCCSc1ccc2nc(NC(=O)OC)[nH]c2c1 | Vittaforma corneae | - | - | RK-13 | - | inhibition | 0.1 µg/mL | 86.7% |
| COc1c(C)c2c(c(O)c1CC(=O)O)C(=O)OC2 | Mumps virus | ECXH-3 | - | VERO | plaque count | EC50 | - | 0.82 µg/mL |
| COc1cc(C[C@H](C)[C@H](C)Cc2ccc(O)c(O)c2)ccc1O | Candida colliculosa | CCC 122-2000 | - | - | broth dilution | MIC80 | - | 31.25 µg/mL |
| O=c1cnn([C@@H]2O[C@H](CO)[C@@H](O)[C@H]2O)c(=O)[nH]1 | West Nile virus | E101 | - | VERO | virus yield | EC50 | - | <3.2 µg/mL |
| CN(C)[C@@H]1C(=O)C(C(N)=O)=C(O)[C@@]2(O)C(=O)C3=C(O)c4c(O)c(NC(=O)CNc5ccccc5)cc(F)c4C[C@H]3C[C@@H]12 | Staphylococcus aureus | 161-MRS | - | - | agar diffusion | EC50 | - | 4 µg/mL |
| CC(C)(CO)C(=O)SCCOP(=O)(NCc1ccccc1)OC[C@H]1O[C@@H](n2cnc3c(=O)[nH]c(N)nc32)[C@](C)(O)[C@@H]1O | Hepatitis C virus | GT1a | M28T | Replicon cells | replicon | fold resistance | - | 1.06 |
| OC(Cn1cncn1)(Cn1cncn1)c1ccc(F)cc1F | Candida albicans | YL 336 | - | - | broth dilution | MIC | - | 512 µg/mL |
| CN[C@@H]1[C@H](O[C@H]2[C@H](O[C@H]3[C@H](O)[C@@H](O)[C@H](N=C(N)N)[C@@H](O)[C@@H]3N=C(N)N)O[C@@H](C)[C@]2(O)C=O)O[C@@H](CO)[C@H](O)[C@H]1O | Klebsiella pneumoniae | ESBL-75799 | - | - | - | MIC | - | 25 µg/mL |
| CC(C)=CCN1c2cc(Cl)cc3[nH]c(=S)n(c23)C[C@@H]1C | HIV-1 | - | RT-M41L T215Y L100I | MT-4 | - | EC95 | - | 0.2 µM |
| CCOC(=O)Nc1cc2oc(=O)c(-c3ccccc3)nc2c(N)n1 | Encephalitozoon intestinalis | - | - | RK-13 | - | inhibition | 0.01 µg/mL | 6.4% |
| CC1COc2c(N3CCN(C)CC3)c(F)cc3c(=O)c(C(=O)O)cn1c23 | Streptococcus pneumoniae | 30 strains | - | - | - | MIC90 | - | 2 µg/mL |
| Nc1nc2c(ncn2CCOCP(=O)(O)O)c(=O)[nH]1 | Measles virus | Chicago | - | - | virus yield | inhibition | 0.3 µg/mL | 90% |
| COc1ccc2cc3[n+](cc2c1OC)CCc1cc2c(cc1-3)OCO2 | Encephalitozoon intestinalis | - | - | RK-13 | - | inhibition | 0.001 µg/mL | 0% |